Patent US20240309012A1, “ISOQUINOLINE COMPOUND, MANUFACTURING METHOD THEREFOR, AND APPLICATION THEREOF” (priority 2020, published 2024)

System: 2019 novel coronavirus (SARS-CoV-2)
Assay: Inhibition of 2019 novel coronavirus (SARS-CoV-2) replication in Vero E6 cells, virus copy number by qRT-PCR
Type: cell-based
Conditions: for Therapeutic index SI: CC50/EC50, Vero E6 cells; for SI Ratio (SI ratio of each compound to berbamine hydrochloride): relative to berbamine hydrochloride

Row | Compound | Therapeutic index SI | SI Ratio (SI ratio of each compound to berbamine hydrochloride)
1 | Berbamine hydrochloride [reference compound] | 2.06 | 1.00
2 | COc1cc2c3cc1Oc1c(OC)c(OC)cc4c1[C@@H](Cc1cc(c5oc(=O)[nH]c5c1)Oc1ccc(cc1)C[C@@H]3N(C)CC2)N(C)CC4 [Compound 18] | 16.33 | 7.92
3 | COC(=O)c1ccc2cc1Oc1ccc(cc1)C[C@H]1c3cc(c(OC)cc3CCN1C)Oc1c(OC)c(OC)cc3c1[C@@H](C2)N(C)CC3 [Compound 8] | 87.22 | 42.34
4 | COc1cc2c3cc1Oc1c(OC)c(OC)cc4c1[C@@H](Cc1ccc(C(N)=O)c(c1)Oc1ccc(cc1)C[C@@H]3N(C)CC2)N(C)CC4 [Compound 9] | 114.91 | 55.78
5 | COc1cc2c3cc1Oc1c(OC)c(OC)cc4c1[C@@H](Cc1ccc(C(=O)Nc5ccccc5)c(c1)Oc1ccc(cc1)C[C@@H]3N(C)CC2)N(C)CC4 [Compound 51] | >5.10 | >2.48
6 | COc1cc2c3cc1Oc1c(OC)c(OC)cc4c1[C@@H](Cc1ccc(C5CC5)c(c1)Oc1ccc(cc1)C[C@@H]3N(C)CC2)N(C)CC4 [Compound 44] | 4.80 | 2.33
7 | COc1cc2c3cc1Oc1c(OC)c(OC)cc4c1[C@@H](Cc1ccc(C(=O)C5CC5)c(c1)Oc1ccc(cc1)C[C@@H]3N(C)CC2)N(C)CC4 [Compound 61] | >6.85 | >3.33
8 | COc1cc2c3cc1Oc1c(OC)c(OC)cc4c1[C@@H](Cc1ccc(CO)c(c1)Oc1ccc(cc1)C[C@@H]3N(C)CC2)N(C)CC4 [Compound 3] | 62.99 | 30.58
9 | COc1cc2c3cc1Oc1c(OC)c(OC)cc4c1[C@@H](Cc1ccc(C(=O)NC(C)C)c(c1)Oc1ccc(cc1)C[C@@H]3N(C)CC2)N(C)CC4 [Compound 55] | >16 | >7.77
10 | COc1cc2c3cc1Oc1c(OC)c(OC)cc4c1[C@@H](Cc1ccc(C(=O)Nc5cccnc5)c(c1)Oc1ccc(cc1)C[C@@H]3N(C)CC2)N(C)CC4 [Compound 58] | >13.2 | >6.41
11 | COc1cc2c3cc1Oc1c(OC)c(OC)cc4c1[C@@H](Cc1cccc(c1)Oc1ccc(cc1)C[C@@H]3N(C)CC2)N(C)CC4 [Compound 39] | 18.39 | 8.93
12 | CCCCNC(=O)Oc1c(OC)cc2c3c1Oc1cc4c(cc1OC)CCN(C)[C@H]4Cc1ccc(cc1)Oc1cc(ccc1OC)C[C@H]3N(C)CC2 [Compound 53] | >11.10 | >5.38
13 | COc1cc2c3cc1Oc1c(OC)c(OC)cc4c1[C@@H](Cc1cc(cc([N+](=O)[O-])c1)Oc1ccc(cc1)C[C@@H]3N(C)CC2)N(C)CC4 [Compound 33] | 38.57 | 18.72
14 | COc1cc2c3cc1Oc1c(OC)c(OC)cc4c1[C@@H](Cc1ccc(C(C)O)c(c1)Oc1ccc(cc1)C[C@@H]3N(C)CC2)N(C)CC4 (some centres unmarked) [Compound 46] | 29.12 | 14.13
15 | COc1ccc(NC(=O)c2ccc3cc2Oc2ccc(cc2)C[C@H]2c4cc(c(OC)cc4CCN2C)Oc2c(OC)c(OC)cc4c2[C@@H](C3)N(C)CC4)cc1 [Compound 59] | >5.3 | >2.57
16 | COc1cc2c3cc1Oc1c(OC)c(OC)cc4c1[C@@H](Cc1ccc(C)c(c1)Oc1ccc(cc1)C[C@@H]3N(C)CC2)N(C)CC4 [Compound 41] | 4.16 | 2.02

Row | Compound | Therapeutic index SI | SI Ratio (SI ratio of each compound to berbamine hydrochloride)
17 | CCCCCNC(=O)c1ccc2cc1Oc1ccc(cc1)C[C@H]1c3cc(c(OC)cc3CCN1C)Oc1c(OC)c(OC)cc3c1[C@@H](C2)N(C)CC3 [Compound 43] | 4.97 | 2.41
18 | COc1cc2c3cc1Oc1c(OC)c(OC)cc4c1[C@@H](Cc1ccc(C#N)c(c1)Oc1ccc(cc1)C[C@@H]3N(C)CC2)N(C)CC4 [Compound 1] | 36.56 | 17.75
19 | COc1cc2c3cc1Oc1c(OC)c(OC)cc4c1[C@@H](Cc1ccc(C(=O)OCCOCCO)c(c1)Oc1ccc(cc1)C[C@@H]3N(C)CC2)N(C)CC4 [Compound 65] | >29.2 | >14.17
20 | COc1cc2c3cc1Oc1c(OC)c(OC)cc4c1[C@@H](Cc1ccc(C(=O)NC5CCC5)c(c1)Oc1ccc(cc1)C[C@@H]3N(C)CC2)N(C)CC4 [Compound 57] | >16.95 | >8.23
21 | COc1cc2c3cc1Oc1c(OC)c(OC)cc4c1[C@@H](Cc1ccc(C(=O)NC5CC5)c(c1)Oc1ccc(cc1)C[C@@H]3N(C)CC2)N(C)CC4 [Compound 49] | >31.15 | >15.12
22 | C=CC(=O)Nc1ccc2cc1Oc1ccc(cc1)C[C@H]1c3cc(c(OC)cc3CCN1C)Oc1c(OC)c(OC)cc3c1[C@@H](C2)N(C)CC3 [Compound 42] | >15.55 | >7.55
23 | COc1cc2c3cc1Oc1c(OC)c(OC)cc4c1[C@@H](Cc1ccc(C(=O)NCCOCCO)c(c1)Oc1ccc(cc1)C[C@@H]3N(C)CC2)N(C)CC4 [Compound 62] | >61.35 | >29.78
24 | COc1cc2c3cc1Oc1c(OC)c(OC)cc4c1[C@@H](Cc1ccc(C(=O)N5CCCCC5)c(c1)Oc1ccc(cc1)C[C@@H]3N(C)CC2)N(C)CC4 [Compound 47] | >12.30 | >5.97
25 | C=C(C)c1ccc2cc1Oc1ccc(cc1)C[C@H]1c3cc(c(OC)cc3CCN1C)Oc1c(OC)c(OC)cc3c1[C@@H](C2)N(C)CC3 [Compound 40] | 12.31 | 5.98
26 | COc1cc2c3cc1Oc1c(OC)c(OC)cc4c1[C@@H](Cc1ccc(C=O)c(c1)Oc1ccc(cc1)C[C@@H]3N(C)CC2)N(C)CC4 [Compound 2] | 85.71 | 41.61
27 | CCCCNC(=O)Oc1ccc2cc1Oc1ccc(cc1)C[C@H]1c3cc(c(OC)cc3CCN1C)Oc1c(OC)c(OC)cc3c1[C@@H](C2)N(C)CC3 [Compound 4] | 33.47 | 16.25
28 | COc1cc2c3cc1Oc1c(OC)c(OC)cc4c1[C@@H](Cc1ccc(C(C)=O)c(c1)Oc1ccc(cc1)C[C@@H]3N(C)CC2)N(C)CC4 [Compound 25] | >14.7 | >7.14
29 | COc1cc2c3cc1Oc1c(OC)c(OC)cc4c1[C@@H](Cc1ccc(C(=O)Nc5ccc(C(F)(F)F)cc5)c(c1)Oc1ccc(cc1)C[C@@H]3N(C)CC2)N(C)CC4 [Compound 54] | >5.25 | >2.55
30 | COc1cc2c3cc1Oc1c(OC)c(OC)cc4c1[C@@H](Cc1ccc(C(=O)NC5CCCC5)c(c1)Oc1ccc(cc1)C[C@@H]3N(C)CC2)N(C)CC4 [Compound 28] | 9.38 | 4.55
31 | COc1cc2c3cc1Oc1c(OC)c(OC)cc4c1[C@@H](Cc1ccc(OC(=O)CCCC[C@H]5CCSS5)c(c1)Oc1ccc(cc1)C[C@@H]3N(C)CC2)N(C)CC4 [Compound 5] | 114.80 | 55.73
